In PubChem BioAssay AID493033 (ICCB-Longwood Screening Facility, Harvard Medical School, 2011):
The entries are a selection whose mix differs from that of the whole data set. Active and inactive are the calls of the source. Rule as the data show it: active = inhibition mostly above about 56% (no sharp cut-off); inactive = mostly below about 77%.

The chains behind the UniProt entries cited, without tags or fusion partners. Where a name states a change or a piece, a line headed by the entry shows the natural chain unless it says otherwise.
UniProt P9WFX0: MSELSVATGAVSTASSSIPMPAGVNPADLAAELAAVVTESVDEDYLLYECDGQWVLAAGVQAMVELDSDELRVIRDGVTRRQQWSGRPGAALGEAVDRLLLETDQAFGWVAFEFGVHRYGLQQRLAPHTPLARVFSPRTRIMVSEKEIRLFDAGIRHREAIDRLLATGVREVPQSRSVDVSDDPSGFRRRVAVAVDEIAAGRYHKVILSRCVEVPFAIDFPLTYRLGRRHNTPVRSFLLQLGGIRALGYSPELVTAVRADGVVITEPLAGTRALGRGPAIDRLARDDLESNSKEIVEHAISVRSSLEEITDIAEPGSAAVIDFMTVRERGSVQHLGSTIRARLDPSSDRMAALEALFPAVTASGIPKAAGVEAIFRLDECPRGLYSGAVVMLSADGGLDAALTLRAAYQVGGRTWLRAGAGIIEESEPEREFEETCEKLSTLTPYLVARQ

biological target: Salicylate synthase (Mycobacterium tuberculosis (strain CDC 1551 / Oshkosh)) (UniProt P9WFX0); assay: inhibitors of M. tuberculosis MbtI – biochemical, fluorescence intensity, primary screen (AID 493033); settings: purified MbtI enzyme, fluorescence intensity read-out; stronger effect = higher value; concentration not given here

Compound	inhibition
CCN1C(=O)N(c2ccccc2)P(=S)(OC)c2cc3c(cc21)OCCO3 (stereo unspecified)	active: 94%
